Compound potency records, mixed from different reports. Data source: NIAID ChemDB in PubChem.

Common to all: toxicity to cultured cells; endpoint: CC50

Blank or dashed fields: not listed here. Neighbouring rows are from separate reports. CCn: concentration that lowers growth or viability of the cells by n%. Two numbers with a dash give a range or band.

structure,cell line,method,result
CSc1nsc(-c2ccc(OCCCCOc3ccccc3)cc2)c1C#N,HEP-2/L-929/VERO,,>20 µM
CCCCCCCN=C(N)c1ccc(N2CCN(c3ccc(C(N)=NCCCCCCC)cc3)CC2)cc1,A549,,>3.4 µg/mL
CCCCCCNC(=S)Nc1cccc(OCCCCCc2ccccc2)c1,Ava5-EG(delta4AB)SEAP,MTS,>1 µM
CO[C@H]1C[C@H](n2cc(C)c(=O)[nH]c2=O)O[C@@H]1COP(=O)(OCC(Cl)Cl)OC[C@H]1O[C@@H](n2cc(C)c(=O)[nH]c2=O)C[C@@H]1OC,JM,,>1000 µM
NC1=NC2C(C=CN2CC(CO)CCO)C(=O)N1,OMK,cell count,>200 µM
CC(=O)O[C@H]1C[C@H](n2cc(C)c(=O)[nH]c2=O)O[C@@H]1CO,JM,,1000 µM
CCCN(Cc1ccccc1OCC(=O)OCC)C(=O)c1ccc(-c2ccc3c(c2)OCO3)cc1,HEK 293,,>20 µM
Nc1nc(=O)n([C@@H]2O[C@H](CO)[C@@H](O)[C@@H]2F)cc1I,RPMI8226,,10.51 µg/mL
Nc1ncnc2c1c(-c1ccoc1)cn2[C@H]1O[C@H](CO)[C@@H](O)C1(F)F,Replicon cells,XTT,>44 µM
CCc1ccc2cc(-c3ccccc3)cn2c1,MRC-5,MTT,>500 µM
CSc1nsc(-c2ccc(OCc3ccccc3)cc2)c1C#N,HELA-OHIO,,>50 µM
CC(=O)OCC1=C[C@H]2[C@@H]3C(C)(C)[C@]3(OC(C)=O)[C@H](OC(C)=O)[C@@H](C)[C@]2(O)[C@@H]2C=C(C)C(=O)[C@@]2(O)C1,C8166,MTT,>200 µM
Nc1cn(/C=C2/C[C@H]2CO)c(=O)[nH]c1=O,H-1,,>50 µM
Nc1ncnc2c1c(I)cn2COCCO,BSC-1,,>100 µM
Cn1cc(C(=O)NCc2ccc(Cl)cc2)c(=O)c2cc(CN3CCOCC3)ccc21,BCBL-1,MTS,>23.5 µM
CO[C@H]1C[C@H](n2cc(C)c(=O)[nH]c2=O)O[C@@H]1COP(=O)(OC[C@H]1O[C@@H](n2cc(C)c(=O)[nH]c2=O)C[C@@H]1OC)Oc1ccccc1,JM,,>500 µM
Nc1ncnc2c1c(-c1cccs1)cn2[C@@H]1O[C@H](CO)[C@@H](O)C1(F)F,Replicon cells,XTT,26.36 µM
C/C(=N\N=C(N)N)c1cc(NC(=O)CCCCCCCCC(=O)Nc2cc(/C(C)=N/N=C(N)N)cc(/C(C)=N/N=C(N)N)c2)cc(/C(C)=N/N=C(N)N)c1,PM1,MTT,2 µM
NC(=S)Nc1cccc(OCCCCCOc2cccc(Oc3ccccc3)c2)c1,Ava5-EG(delta4AB)SEAP,MTS,>1 µM
CCOC(=O)c1ccc(OCCCOc2ccc(-c3snc(SC)c3C#N)cc2)cc1,HEP-2/L-929/VERO,,2 µM
CN[C@@H]1[C@H](O[C@@H]2OC[C@@H](O)[C@H](O)[C@H]2O)[C@@H](O)[C@H](O[C@H]2c3cc(C)c(C(=O)N[C@H](C)C(=O)O)c(O)c3-c3c(cc4c(c3O)C(=O)c3cc(OC)cc(O)c3C4=O)[C@@H]2O)O[C@@H]1C,B16-F10,,>500 µg/mL
Cc1ncc(-c2c[nH]c3ccccc23)o1,NCI-H187,resazurin,>50 µg/mL
Nc1ncnc2c1c(-c1cccs1)cn2[C@@H]1O[C@H](CO)[C@@H](O)[C@H]1F,Replicon cells,XTT,18.53 µM
O=C1[C@H]2Cc3c([nH]c4ccccc34)[C@@H](c3ccc4c(c3)OCO4)N2C(=O)CN1[C@@H]1CCN(CCCCCO)C1,MRC-5 SV2,resazurin,32 µM
C[C@H]1[C@H](O)[C@@H](CO)O[C@H]1n1cc(Br)c(N)nc1=O,RPMI8226,,84.8 µg/mL
COC(=O)C(C)NP(=O)(OC[C@@H]1C/C1=C/n1cc(N)c(=O)[nH]c1=O)Oc1ccccc1,H-1,,74 µM
CC1=C[C@H]2[C@@]3(O)[C@H](C)[C@@H](O)[C@]4(OC(=O)/C=C/c5ccccc5)[C@H]([C@@H]3C=C(CO)C[C@]2(O)C1=O)C4(C)C,C8166,MTT,>200 µM
COc1ccc(C)cc1OCCBr,BJ,,>20 µM
c1cc(N2CCN(c3ccc(C4=NCCN4)cc3)CC2)ccc1C1=NCCN1,A549,,1070 µg/mL
O=c1[nH]c(=O)n([C@@H]2O[C@H](CO)[C@@H](O)[C@@H]2O)cc1/C=C/Br,NIH 3T3,cell count,530 µM
Fc1cccc(-c2cc3ccccn3c2)c1,MRC-5,MTT,100 µM
Nc1ncnc2c1ncn2[C@@H]1C[C@@](OCP(=O)(O)O)(C2CC2)[C@@H](O)[C@H]1O,T4,XTT / absorbance,>100 µM
Nc1ncnc2c1c(-c1ccoc1)cn2[C@@H]1O[C@H](CO)[C@@H](O)[C@H]1F,Replicon cells,XTT,>44 µM
NNC(=O)c1ccc(N2CCN(c3ccc(C(=O)NN)cc3)CC2)cc1,A549,,60 µg/mL
COc1ccc2[nH]c3c(C)c(C)c(OC)c(OC)c3c2c1,NCI-H187,resazurin,12.9 µg/mL
CSc1nsc(-c2ccc(OCCCOc3ccc(C#N)cc3)cc2)c1C#N,HELA-OHIO,,2 µM
COc1c(C)c2c(c(O)c1C/C=C(\C)CCC(=O)O)C(=O)OC2,QM5,,5.1 µg/mL
C[C@H]1[C@H](O)[C@@H](CO)O[C@H]1n1cc(F)c(N)nc1=O,RPMI8226,,66.9 µg/mL
COc1cc2[nH]c3ccccc3c2cc1C=O,1A2,tetrazolium,680 µM
CC(C)C[C@@H]1NC(=O)[C@@H](Cc2ccc(Cl)cc2)NC(=O)[C@@H](CCCN)NC(=O)[C@H](CC(N)=O)NC(=O)[C@H](C(C)C)NC(=O)[C@@H](CC(C)C)NC1=O,Hep2G,luminescence,>100 µM
Nc1ncnc2c1c(-c1ccco1)cn2[C@@H]1O[C@H](CO)[C@@H](O)C1(F)F,Replicon cells,XTT,>44 µM
CC[C@@H](C)[C@@H]1NC(=O)[C@@H](Cc2ccc(Cl)cc2)NC(=O)[C@H](CC(C)C)NC(=O)[C@H](Cc2c[nH]c3ccccc23)NC(=O)[C@@H](CCCN)NC(=O)[C@@H](CCCN)NC1=O,Hep2G,luminescence,>100 µM
CC(C)(C)OC(=O)NCCN1CC[C@@H](N2CC(=O)N3[C@H](c4ccc5c(c4)OCO5)c4[nH]c5ccccc5c4C[C@@H]3C2=O)C1,MRC-5 SV2,resazurin,34 µM
CCCN(Cc1ccc(OCC(=O)O)cc1)C(=O)c1ccc(-c2ccc3c(c2)OCO3)cc1,BJ,,>20 µM
CCOC(=O)c1ccc(OCCCCOc2ccc(-c3snc(SC)c3C#N)cc2)cc1,HELA-OHIO,,2 µM
COc1c(C)c(C)c2[nH]c3ccccc3c2c1OC,NCI-H187,resazurin,18.4 µg/mL
COC(=O)CCCC1=NCCc2cc(OC)c(OC)cc21,HepG2,,>20 µM
C#Cc1cn([C@@H]2O[C@H](CO)[C@@H](O)[C@H]2F)c2ncnc(N)c12,Replicon cells,XTT,21.9 µM
CCOC(OCC)C(=O)NCCc1ccc(OC)c(OC)c1,BJ,,<7.5 µM
Cn1ccnc1CN1CC[C@@H](N2CC(=O)N3[C@H](c4ccc5c(c4)OCO5)c4[nH]c5ccccc5c4C[C@@H]3C2=O)C1,MRC-5 SV2,resazurin,40 µM
CCOC(=O)CCCCCOc1cccc(CN(C(=O)c2ccc(-c3cccc(C(F)(F)F)c3)cc2)C(C)C)c1,RAJI,,>20 µM
O=[N+]([O-])c1cccc(-c2cc3ccccn3c2)c1,MRC-5,MTT,100–200 µM
CSc1nsc(-c2ccc(OCCOc3ccccc3)cc2)c1C#N,HEP-2/L-929/VERO,,>20 µM
Nc1ncnc2c1c(-c1ccco1)cn2[C@@H]1O[C@H](CO)[C@@H](O)[C@H]1F,Replicon cells,XTT,>44 µM
CC(C)(C)c1ccccc1Sc1c(O)cc(-c2ccc(OCc3cccnc3)cc2)oc1=O,CH-1,,1.31 µM
Cc1cc2nc3c4ccccc4n(CCN(C)C)c3nc2cc1C,HL,,10–30 µM
O=c1[nH]c(=O)n([C@H]2C[C@H](O)[C@@H](CO)O2)cc1/C=C/Br,P3HR-1,,390 µM
C[C@H]1[C@H](O)[C@@H](CO)O[C@H]1n1cc(F)c(=O)[nH]c1=O,RPMI8226,,67.5 µg/mL
NC(=S)Nc1cccc(OCCCCCOc2ccncc2)c1,Ava5-EG(delta4AB)SEAP,MTS,>1 µM
COc1ccc2c(c1)[nH]c1cc(OC)c(C(=O)O)cc12,1A2,tetrazolium,54.1 µM
COc1ccc(-c2nc3ccccc3n2C(=O)/C=C/c2ccccc2)cc1,8E5,MTT / absorbance,20 µg/mL
CCCCCCCCC(=O)O[C@@]12[C@H](OC(=O)/C=C/c3ccccc3)[C@@H](C)[C@@]3(O)[C@@H](C=C(CO)C[C@]4(O)C(=O)C(C)=C[C@@H]34)[C@@H]1C2(C)C,C8166,MTT,17.1 µM
CCC(C)C1NC(=O)[C@H](CC(C)C)NC(=O)[C@H](Cc2c[nH]c3ccccc23)NC(=O)[C@@H](CCCN)NC(=O)[C@H](CC(N)=O)NC(=O)[C@H](C(C)C)NC1=O,Hep2G,luminescence,>100 µM
Nc1nc2c(ncn2COC(CO)CO)c(=O)[nH]1,P3HR-1,,200 µM
O=c1[nH]c(=O)n([C@H]2C[C@H](O)[C@@H](CO)O2)cc1/C=C/Cl,NIH 3T3,cell count,>70 µM
CC(C)CC1C(=O)N[C@H](CC(C)C)C(=O)N[C@@H](C(C)C)C(=O)N(C)C(CC(N)=O)C(=O)N[C@H](CCCN)C(=O)N[C@@H](Cc2c[nH]c3ccccc23)C(=O)N1C,Hep2G,luminescence,>100 µM
Nc1ncnc2c1c(-c1ccccc1)cn2[C@@H]1O[C@H](CO)[C@@H](O)[C@H]1F,Replicon cells,XTT,>44 µM
COc1c(N2CCN(C)C(c3ccccc3)C2)c(F)c([N+](=O)[O-])c2c(=O)c(C(=O)O)cn(C3CC3)c12,Vero mammalian cell line,MTT,126 µM
NC(=S)Nc1cccc(OCCCCCNc2cccc3ccccc23)c1,Ava5-EG(delta4AB)SEAP,MTS,>1 µM
c1ccn2cc(-c3ccoc3)cc2c1,MRC-5,MTT,>500 µM
CCOP(=O)(CO[C@@]1(C2CC2)C[C@@H](n2cnc3c(N)ncnc32)[C@H](C)[C@@H]1C)OCC,T4,XTT / absorbance,>100 µM
CSc1nsc(-c2ccc(OCCCOc3ccc([N+](=O)[O-])cc3)cc2)c1C#N,HELA-OHIO,,1 µM
CCCN=C(N)c1ccc(N2CCN(c3ccc(C(N)=NCCC)cc3)CC2)cc1,A549,,>153 µg/mL
CC(=O)O[C@@]12[C@H](OC(=O)/C=C/c3ccc(Br)cc3)[C@@H](C)[C@@]3(O)[C@@H](C=C(CO)C[C@]4(O)C(=O)C(C)=C[C@@H]34)[C@@H]1C2(C)C,C8166,MTT,41.15 µM
Nc1cn(C=C2C[C@H]2CO)c(=O)[nH]c1=O,H-1,,>50 µM
O=C(NCc1ccc(Cl)cc1)c1cn2c(CCN3CCOCC3)cc3cc(CN4CCOCC4)cc(c1=O)c32,CBL,MTS,>17.9 µM
Nc1nc(=O)n([C@@H]2O[C@H](CO)[C@@H](O)[C@@H]2F)cc1I,P3HR-1,,5 µM
CC(C)N(Cc1cccc(OCCCCCC(=O)OC(=O)O)c1)C(=O)c1ccc(-c2ccco2)cc1,BJ,,>20 µM
Nc1nc2c(ncn2CCC(CO)CO)c(=O)[nH]1,BCBL-1,cell count,138 µM
CCCCNc1ccc2c(c1)Cc1cc(NC(N)=S)ccc1-2,Ava5-EG(delta4AB)SEAP,MTS,>1 µM
C[C@H]1[C@H](O)[C@@H](CO)O[C@H]1n1cc(I)c(=O)[nH]c1=O,RPMI8226,,74.5 µg/mL
CCCCCCCCNC(=S)Nc1cccc(OCCCCCc2ccccc2)c1,Ava5-EG(delta4AB)SEAP,MTS,>1 µM
NC(=NC1CCCCCCC1)c1ccc(N2CCN(c3ccc(C(N)=NC4CCCCCCC4)cc3)CC2)cc1,WI-38,,>1.95 µg/mL